Laboratory results taken from patent publication US20230126310A1 (priority 2020, published 2023).
Where a name gives a salt, the structure may show the parent alone. Read-outs that look alike come from different tables or passages of the source.

System: SARS-CoV-2

Structure (SMILES) | SI: selectivity index (CC50/IC50) (CC50/IC50) | SI: selectivity index (CC50/IC50)
FC(F)(F)Oc1ccc2nc(-c3ccc(OCCOCCOc4ccc(-c5nc6ccc(OC(F)(F)F)cc6[nH]5)nc4)cn3)[nH]c2c1 [AI-10-49] | 35 | –
CC(C)(C)c1ccc(/C=C/C(=O)Nc2ccc3c(c2)OCCO3)cc1 [AMG-9810] | – | 1
C=C(c1ccccc1OCc1cccc(Cl)c1)n1ccnc1 [Cloconazole HCl] | 2 | –
CCCCC1(C2CCCC2)Cc2cc(OCCCC(=O)O)c(Cl)c(Cl)c2C1=O (stereo not shown) [DCPIB] | 2 | –
Cn1cc(-c2ccc3c(c2)CCN3C(=O)Cc2cccc(C(F)(F)F)c2)c2c(N)ncnc21 [GSK2606414] | >100 | –
Cc1nn(C)c2nc(NNC(=O)Nc3cc(Cl)nc(Cl)c3)cc(C(C)C)c12 [JTE-013] | 3 | –
C/C(=N\NC(=S)N1CCC1)c1ccccn1 [NSC319726] | – | 1
C[CH2][Hg][S]c1ccccc1C(=O)[O-].[Na+] [THIMEROSAL] | – | 8
CC(C)(C)c1cc(/C=C(\C#N)C(N)=S)cc(C(C)(C)C)c1O [Tyrphostin AG 879 (AG 879), Tyrphostin AG 879] | – | 7
CCOC(=O)c1ncc2[nH]c3ccc(OCc4ccccc4)cc3c2c1COC.Cl [ZK-93423] | 1 | –
